Results: publication PMC8883962

biological target: Finegoldia Protein L (PpL) (Finegoldia magna) (UniProt Q51918); test: BLI

Kd [nM] | Substance
149 | Pertuzumab Vκ2–VH1 IgG1 (antibody)
0.93 | Pertuzumab Vκ2–VH5 IgG1 (antibody)
0.72 | Pertuzumab Vκ2–VH6 IgG1 (antibody)
124 | Trastuzumab Vκ2–VH1 IgG1 (antibody)
78.6 | Trastuzumab Vκ2–VH2 IgG1 (antibody)
190 | Trastuzumab Vκ2–VH6 IgG1 (antibody)
9.79 | Trastuzumab Vκ2–VH7 IgG1 (antibody)
1.75 | Trastuzumab Vκ5–VH3 IgG1 (antibody)

biological target: Staphylococcal Protein A (SpA) (Staphylococcus aureus) (UniProt P38507); test: BLI

Substance | Kd [nM]
Pertuzumab Vκ2–VH7 IgG1 (from UniProt P01857) | 1.15
Pertuzumab Vκ5–VH7 IgG1 (from UniProt P01857) | 1.3
Trastuzumab Vκ2–VH1 IgG1 (from UniProt P01857) | 1.49
Trastuzumab Vκ5–VH3 IgG1 (from UniProt P01857) | 0.72
